Source: patent US20220273789A1
Read-outs that look alike come from different tables or passages of the source.

Tests used:
human IgG (human) [1] = assay: BLI Octet, construct on Ni-NTA sensor, hIgG in solution
human IgG (human) [2] = assay: BLI (Octet), gEgI on Ni-NTA sensor, hIgG in solution
human IgG (human) [3] = assay: as above; remark: listed apart in the source

Substance | kon (human IgG (human) [1]) [M⁻¹ s⁻¹] | Kd (human IgG (human) [2]) [nM] | Response (human IgG (human) [2]) [nm] | koff (human IgG (human) [2]) [s⁻¹] | Kd (human IgG (human) [3]) [nM] | Response (human IgG (human) [3]) [nm]
Non mutated HSV2 gEgI (HRV4) (from UniProt P89475 21-416; P06764 21-256) (receptor) | 16300 |  |  |  |  | 
Non mutated gEgI (HRV4) (from UniProt P89475 21-416; P06764 21-256) (receptor) |  | 129 | 0.899 | 0.00206 | 262 | 0.732
